The exact form of at least one protein or probe is not confirmed.
Tests used:
[1] = tested on: CarR (Vibrio vulnificus MO6-24/O); test: DNase I footprinting; conditions: 1000 nM CarR, 40 nM DNA, poly(dI-dC), 40 mM Tris-Cl pH 8.0, 50 mM NaCl, 1 mM DTT, 100 uM EDTA, 0.1 ug/uL BSA, 0.05 ug poly(dI-dC) in 20 uL, 25 C, 30 min, probe 5 nM (EMSA) or 40 nM (DNase I), recombinant protein, residues 1-234, protein details: His6, probe letters rebuilt from the primers and the genome
[2] = tested on: CarR (Vibrio vulnificus MO6-24/O); test: EMSA; conditions: poly(dI-dC), unlabeled self-competitor competes dose-dependently, 40 mM Tris-Cl pH 8.0, 50 mM NaCl, 1 mM DTT, 100 uM EDTA, 0.1 ug/uL BSA, 0.05 ug poly(dI-dC) in 20 uL, 25 C, 30 min, probe 5 nM (EMSA) or 40 nM (DNase I), recombinant protein, residues 1-234, protein details: His6, probe letters rebuilt from the primers and the genome
[3] = tested on: CarR D55A (Vibrio vulnificus MO6-24/O); test: EMSA; conditions: poly(dI-dC), affinity stated similar to CarR, 40 mM Tris-Cl pH 8.0, 50 mM NaCl, 1 mM DTT, 100 uM EDTA, 0.1 ug/uL BSA, 0.05 ug poly(dI-dC) in 20 uL, 25 C, 30 min, probe 5 nM (EMSA) or 40 nM (DNase I), recombinant protein, residues 1-234, protein details: His6, probe letters rebuilt from the primers and the genome
[4] = label: 6-FAM (on PCARR-R strand)
[5] = label: 6-FAM (on PEPTA-R strand)

Measured: binding result

CATCTGTTGGAGCTTGATGTCATCTTCAACAATGATCAACTTCTGGTCTTCTACCATGGTGTCATTCTATGCTTTGTTTTGTTGTTATATTGAGTACGTCATCAGAAGTACTGATATGAAACGAGAAGTTATACGACTCACTTCACCTTTTCAAATATAAATGACCACCAAGGAGATTGACAGCAGGAGGTTATCAGAATGGGCACAAAATCAATGTCGTCGTTTTGTATGACTTTGTCATGATCTTGAAGGGGCAACAGACAATGAGGCGCACACCTGAGCGCTTAATACGCTCAGGTGTGCTTGGTCAATTGAAGGGGAACTGGCGGTGAGTTTAGTAAGCTACGCCAATGCGCTGATTGAGGTACTGGTTCG (double strand) [carRS operon upstream region]
binds: [1]; 27-bp protection, label: 6-FAM (on PCARR-R strand) | [2]; [4] | [3]; [4]

GCGGTGATGGTTAGCGCGGCGGTCAGAAGAATTTCCTGACGAAAAGCGGCCTCGTTAATCCATGCGGCTTTCAAGCCTTTCATTGAATAGCCCGTTGCGTCGACAATACGACGAATACCTGTTTTTCCTGGTTTCAAAATATAACCCTACTACTTGTTATTAATGGGAAGCTCAAAGCTGGTTGTGGCAAATGAGTAGTTCGCGGTCGCTAAGCTACTTCACCGCTCGTCAAGCAAATGTGAAAAGAAGTGAAAATAGAGGCGTTGGGAAAGATTAAGCTCGTCAACTGCGTGTTTCGGCACCAGTAACGTAAGAATCACAACGTAAAGTTGCCCTTGTTATCACTTCTATCAATGACTAGGTTGAAATGTACAGCGTTTTATTATGGAAATCAGTCACGCACGTGTAATGAATTGTCGCGCTTTGTAAGATTGGTAAGGTGAATGATGCCGAGGGCATCATTCTGTGTTAGAGGGAAAAACGAATGATGAAGCAGGCAC (double strand) [eptA operon upstream region]
binds: [1]; 35-bp protection, label: 6-FAM (on PEPTA-R strand) | [2]; [5] | [3]; [5]

Reference: article PMC10433830
